Compound potency records, mixed from different reports. Data source: NIAID ChemDB in PubChem.

All rows: tests in culture; organism: Aspergillus fumigatus; endpoint: MIC

Lines come from different laboratories, so protocols vary.

{"structure": "CCOC(=O)c1sc(SC)c(C(=O)OCC)c1O", "strain or isolate": "AF-27", "result": ">100 µg/mL"}
{"structure": "O=c1c(N2CCOCC2)c(N2CCN(S(=O)(=O)Cc3ccccc3)CC2)cnn1-c1ccccc1", "strain or isolate": "ND231", "read by": "broth dilution", "result": "6.25 µg/mL"}
{"structure": "CCOC(=O)c1sc(SC)cc1-c1ccccc1", "strain or isolate": "AF-27", "result": ">100 µg/mL"}
{"structure": "C[C@@H](N1CCN(c2ccc(-n3cnnn3)cc2)C1=O)[C@@](O)(Cn1cncn1)c1ccc(F)cc1F", "strain or isolate": "TIMM1728", "result": ">64 µg/mL"}
{"structure": "Cc1ccc(C(C)C)cc1", "strain or isolate": "F05", "result": ">20 µg/mL"}
{"structure": "COC(=O)N[C@H](C(=O)NN(CC[C@@]1(Cc2ccccc2)C(=O)N(C2c3ccccc3C[C@H]2O[Si](C)(C)C(C)(C)C)C[C@@H]1O[Si](C)(C)C(C)(C)C)Cc1ccc(Br)cc1)C(C)(C)C", "strain or isolate": "RCMB 002003", "read by": "agar", "result": "7.8 µg/mL"}
{"structure": "NCc1c(-c2c(-c3ccc(F)cc3)[nH]c3ccccc23)c(CN)c2nc3ccccc3n2c1N", "strain or isolate": "MTCC 3008", "read by": "broth dilution", "result": "1000 µg/mL"}
{"structure": "C[C@@H](N1CCN(c2ccc(OC(F)(F)C(F)F)cc2)C1=O)C(O)(Cn1cncn1)c1ccc(F)cc1F", "strain or isolate": "IFO6344", "result": "0.25 µg/mL"}
{"structure": "CCC(C)CCCCCCC1CC(=O)NCC(=O)N[C@@H](CCCN)C(=O)N[C@@H](C(C)C)C(=O)N1", "strain or isolate": "IFM41088", "result": ">80 µg/mL"}
{"structure": "CCOC(=O)c1sc(SC)cc1-c1ccc(C)cc1", "strain or isolate": "AF-27", "result": ">100 µg/mL"}
{"structure": "CC(C)S(=O)(=O)N1CCN(c2cnn(-c3cc(F)cc(F)c3)c(=O)c2OC2CCC(F)C2)CC1", "strain or isolate": "ND231", "read by": "broth dilution", "result": "0.5 µg/mL"}
{"structure": "COC(=O)N[C@H](C(=O)NN(CC[C@@]1(Cc2ccccc2)C(=O)N(C2c3ccccc3C[C@H]2O)C[C@@H]1O)Cc1ccc(-c2cccnc2)cc1)C(C)(C)C", "strain or isolate": "RCMB 002003", "read by": "agar", "result": "15.6 µg/mL"}
{"structure": "Cc1noc(NS(=O)(=O)c2ccc(N)cc2)c1C", "strain or isolate": "IFM 51126", "result": "128 µg/mL"}
{"structure": "C[C@@H](N1CCN(c2ccc(-n3cnnn3)cc2)C1=O)[C@](O)(Cn1cncn1)c1ccc(F)cc1F", "strain or isolate": "437", "result": ">64 µg/mL"}
{"structure": "CCCCCCCCCCCCCCCC(=O)NC(CCCN)C(=O)NC(CCCN)C(=O)NC(CCCN)C(=O)NC(CCCN)C(N)=O", "strain or isolate": "ATCC 42203", "read by": "broth dilution", "result": "1.5 µg/mL"}
{"structure": "C[C@@H](n1ncn(-c2ccc(OCC(F)(F)C(F)F)cc2)c1=O)[C@](O)(Cn1cncn1)c1ccc(F)cc1F", "strain or isolate": "TIMM1728", "result": "2 µg/mL"}
{"structure": "COC(=O)N[C@H](C(=O)NN(CC[C@@]1(Cc2ccccc2)C(=O)N(C2c3ccccc3C[C@H]2O)C[C@H]1O)Cc1ccc(-c2ccccn2)cc1)C(C)(C)C", "strain or isolate": "RCMB 002003", "read by": "agar", "result": "15.6 µg/mL"}
{"structure": "COc1ccc(-c2[nH]c3ccccc3c2-c2c(CN)c(N)n3c(nc4cc(C)ccc43)c2CN)cc1", "strain or isolate": "MTCC 3008", "read by": "broth dilution", "result": ">1000 µg/mL"}
{"structure": "COc1cc(O)c2c(c1)C(=O)c1c(cc3c(c1O)-c1c(cc(C)c(C(=O)NCC(=O)O)c1O)[C@H](O[C@@H]1O[C@H](C)[C@H](N)[C@H](O[C@@H]4OC[C@@H](O)[C@H](O)[C@H]4O)[C@H]1O)[C@H]3O)C2=O", "strain or isolate": "IAM2034", "result": "6.3 µg/mL"}
{"structure": "CCCCCCCC(=O)NC(CCCN)C(=O)NC(CCCN)C(=O)NC(CCCN)C(=O)NC(CCCN)C(=O)NC(CCCN)C(N)=O", "strain or isolate": "ATCC 42203", "read by": "broth dilution", "result": ">100 µg/mL"}
{"structure": "NCc1c(-c2c(-c3ccc(Cl)cc3)[nH]c3ccccc23)c(CN)c2nc3ccccc3n2c1N", "strain or isolate": "MTCC 3008", "read by": "broth dilution", "result": ">1000 µg/mL"}
{"structure": "C[C@@H](N1CCN(c2ccc(OC(F)(F)F)cc2)C1=O)C(O)(Cn1cncn1)c1ccc(F)cc1F", "strain or isolate": "IFO6344", "result": "0.5 µg/mL"}
{"structure": "CCC(C)CCCCCCCCC1CC(=O)NCC(=O)N[C@@H](CCCN)C(=O)N[C@@H](C(C)C)C(=O)N1", "strain or isolate": "IFM41088", "result": ">80 µg/mL"}
{"structure": "NCc1c(-c2c(-c3ccc(Br)cc3)[nH]c3ccccc23)c(CN)c2nc3ccccc3n2c1N", "strain or isolate": "MTCC 3008", "read by": "broth dilution", "result": ">1000 µg/mL"}
{"structure": "Cc1nnc(NS(=O)(=O)c2ccc(N)cc2)s1", "strain or isolate": "IFM 47450", "result": "≥256 µg/mL"}
{"structure": "CCOC(=O)c1sc(SC)c(C#N)c1O", "strain or isolate": "AF-27", "result": ">100 µg/mL"}
{"structure": "CCCCCCCCCCCC(=O)NC(CCCN)C(=O)NC(CCCN)C(=O)NC(CCCN)C(=O)NC(CCCN)C(N)=O", "strain or isolate": "ATCC 42203", "read by": "broth dilution", "result": "6.25 µg/mL"}
{"structure": "Cc1ccc2c(c1)nc1c(CN)c(-c3c(-c4ccc(S(C)(=O)=O)cc4)[nH]c4ccccc34)c(CN)c(N)n12", "strain or isolate": "MTCC 3008", "read by": "broth dilution", "result": "1000 µg/mL"}
{"structure": "CCCCCOc1ccc(-c2ccc(-c3ccc(C(=O)N[C@H]4C[C@@H](O)[C@@H](O)NC(=O)[C@@H]5[C@@H](O)[C@@H](C)CN5C(=O)[C@H]([C@H](C)O)NC(=O)[C@H]([C@H](O)[C@@H](O)c5ccc(O)cc5)NC(=O)[C@@H]5C[C@@H](O)CN5C(=O)[C@H]([C@H](C)O)NC4=O)cc3)cc2)cc1", "strain or isolate": "92-270", "result": ">50 µg/mL"}
{"structure": "NCc1c(-c2c(-c3ccccc3)[nH]c3ccccc23)c(CN)c2nc3ccccc3n2c1N", "strain or isolate": "MTCC 3008", "read by": "broth dilution", "result": ">1000 µg/mL"}
{"structure": "Cc1cc(NS(=O)(=O)c2ccc(N)cc2)no1", "strain or isolate": "IFM 53412", "result": "64 µg/mL"}
{"structure": "Cc1ccc2c(c1)nc1c(CN)c(-c3c(-c4ccc(Cl)cc4)[nH]c4ccccc34)c(CN)c(N)n12", "strain or isolate": "MTCC 3008", "read by": "broth dilution", "result": ">1000 µg/mL"}
{"structure": "C[C@@H](N1CCN(c2ccc(OCC(F)(F)C(F)F)cc2)C1=O)C(O)(Cn1cncn1)c1ccccc1F", "strain or isolate": "TIMM1728", "result": "0.5 µg/mL"}
{"structure": "CSc1cc(-c2ccc(C)cc2)c(C(=O)O)s1", "strain or isolate": "AF-27", "result": ">100 µg/mL"}
{"structure": "COc1ccc(NS(=O)(=O)c2ccc(N)cc2)nn1", "strain or isolate": "IFM 41362", "result": "≥256 µg/mL"}
{"structure": "CCCCCCCCCCCCCC(=O)NC(CCCN)C(=O)NC(CCCN)C(=O)NC(CCCN)C(=O)NC(CCCN)C(=O)NC(CCCN)C(N)=O", "strain or isolate": "ATCC 42203", "read by": "broth dilution", "result": "3.1 µg/mL"}
{"structure": "COC(=O)N[C@H](C(=O)NN(CCC[C@@]1(Cc2ccccc2)C(=O)N(C2c3ccccc3C[C@H]2O)C[C@H]1O)Cc1ccc(Br)cc1)C(C)(C)C", "strain or isolate": "RCMB 002003", "read by": "agar", "result": "7.8 µg/mL"}
{"structure": "CS(=O)(=O)c1ccc(-c2[nH]c3ccccc3c2-c2c(CN)c(N)n3c(nc4ccccc43)c2CN)cc1", "strain or isolate": "MTCC 3008", "read by": "broth dilution", "result": "1000 µg/mL"}
{"structure": "COC(=O)N[C@H](C(=O)NN(CC[C@]1(Cc2ccccc2)C(=O)N(C2c3ccccc3C[C@H]2O)C[C@H]1O)Cc1ccc(Br)cc1)C(C)(C)C", "strain or isolate": "RCMB 002003", "read by": "agar", "result": "15.6 µg/mL"}
{"structure": "Cc1ccc2c(c1)nc1c(CN)c(-c3c(-c4ccc(Br)cc4)[nH]c4ccccc34)c(CN)c(N)n12", "strain or isolate": "MTCC 3008", "read by": "broth dilution", "result": "1000 µg/mL"}